# Data as given in PubChem BioAssay AID624099 (ICCB-Longwood, 2012).
# Aim: 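Knock-downs relieving repression by E2 of an HPV18 LCR luciferase reporter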 (primary screen)
# Cells: human C33A cervical carcinoma cells (HPV-negative) stably expressing BPV1 E2 and an HPV18 LCR luciferase reporter
# Reagent: siRNA pool against human genes, 40 nM
# Duration: 72 h
# Measurement: 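HPV18 LCR reporter light per well, converted to plate-wise z-scores that exclude control wells, and averaged over triplicate plates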
# Direction: mean z-score and z-score: higher = stronger reporter signal, weaker E2 silencing
# Active means: 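Hit if mean z-score reaches 2 and two or more of three replicate z-scores also reach 2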
# The deposit covers about 21,000 reagents; below is a part drawn at random. 497 of all reagents (2.4%) were called active. 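Higher z means weaker E2 silencing; only reporter increases were scored, and knock-downs that hurt cell survival may mask genuine repressor factors.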 Reagents against one gene are numbered here. No sequences are given here.
target gene,reagent no.,mean z-score,"z-score, replicate A","z-score, replicate B","z-score, replicate C",Outcome
MAFF,1,0.52,0.56,0.56,0.46,inactive
DNAH6,1,-0.12,0.05,-0.29,-0.14,inactive
DNAH6,2,0.85,0.79,0.71,1.06,inactive
DNAH6,3,-0.15,0.04,-0.27,-0.22,inactive
DNAH6,4,1.04,1.01,1.05,1.05,inactive
LOC387872 (retired record),1,-1.02,-1.18,-0.66,-1.22,inactive
CAVIN1,1,-0.46,-0.44,-0.52,-0.43,inactive

Continued, starting with the last 2 of the part before.
target gene,reagent no.,mean z-score,"z-score, replicate A","z-score, replicate B","z-score, replicate C",Outcome
LOC387872 (retired record),1,-1.02,-1.18,-0.66,-1.22,inactive
CAVIN1,1,-0.46,-0.44,-0.52,-0.43,inactive
ZSCAN4,1,-0.15,-0.24,-0.2,-0.02,inactive
ZRSR2P1,1,-0.11,-0.14,-0.11,-0.07,inactive
NEUROD2,1,-0.41,-0.69,-0.11,-0.42,inactive
METTL3,1,-0.39,-0.47,-0.31,-0.39,inactive
RTP1,1,-0.89,-0.69,-1.17,-0.8,inactive
OR2B6,1,-0.59,-0.48,-0.65,-0.64,inactive
METTL1,1,-1.48,-1.61,-1.63,-1.19,inactive
RUSC1,1,-1.16,-1.36,-1.01,-1.13,inactive
LOC388790 (retired record),1,-1.02,-1.41,-0.76,-0.9,inactive
KDM4D,1,1.09,0.93,1.33,1.01,inactive
SNX13,1,-0.41,-0.55,-0.02,-0.66,inactive
SLC29A4,1,-0.05,-0.23,0.13,-0.13,inactive
DCANP1,1,-0.29,-0.26,-0.7,0.1,inactive
IL25,1,-0.91,-0.28,-1.11,-1.35,inactive
FHAD1,1,-1.2,-1.31,-1.15,-1.13,inactive
PYCARD,1,1.4,1.64,1.12,1.43,inactive
